Results taken from publication PMC3464209.
For at least one entry, the source does not settle the construct or the ends of the probe. A negative result means that nothing was seen under these conditions.

Chains of the proteins cited; added tags and fusions are not shown. Lines headed by an entry give the natural chain unless they say otherwise; changes in a name come on top.
UniProt Q2FWL2: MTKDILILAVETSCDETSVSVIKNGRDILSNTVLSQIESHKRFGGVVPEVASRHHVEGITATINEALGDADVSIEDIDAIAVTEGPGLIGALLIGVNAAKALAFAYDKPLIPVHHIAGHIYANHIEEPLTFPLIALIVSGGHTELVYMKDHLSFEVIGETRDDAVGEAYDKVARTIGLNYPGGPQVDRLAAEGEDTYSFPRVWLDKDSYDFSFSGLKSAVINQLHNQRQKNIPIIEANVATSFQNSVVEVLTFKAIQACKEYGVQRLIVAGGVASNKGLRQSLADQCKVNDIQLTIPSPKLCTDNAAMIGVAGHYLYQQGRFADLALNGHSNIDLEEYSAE

Biological target: Gcp (UniProt Q2FWL2)
Assay: EMSA
Details: 2 mM Mg2+, poly-[d(I-C)] 1 ug, various Gcp concentrations; 25 mM NaH2PO4 pH 8.0, 50 mM NaCl, 2 mM MgCl2, 1 mM DTT, 10% glycerol, 0.1 mM EDTA, 1 ug poly-[d(I-C)], 0.2 pmol DIG-DNA in 20 ul, room temperature 25 min; recombinant protein; protein details: His-tag; probe letters rebuilt from the primers and the genome

“ATCCATTGTTCAATCGTATCTAACTTTATATTTAACCTTTATATTGTAACAAATTTCAACTTAAATTTCTTATCTTTGAAACAGATTATCTATTCAAAGTTAATTGTAAGAAAATTTAAAATATTTGTTGACATACTAAAGCAGATATAGTAAATTAAATTTATCAAATTTTTAGACAATTCTAACTATTAAAGTGATATATACCATTCACGGAAGGAGTATAATAAAATGCTTAATCAATATACTGAACATCAACCGACAACTTCAAATATTATTATTTTATTATACTCTTTAGGACTCGAACGTTAGTAAATATTTACTAAACGCTTTAAGTCCTATTTCTGTTTGAATGGGACTTGTAAACGTCCCAATAATATTGGGACGTTTTTTTATGTTTTATCTTTCAATTACTTATTTTTATTACTATAAAACATGATTAATCATTAAAATTTAC (double strand) [ilv promoter region (upstream of ilvD)]”: no binding.
